This series relates to O=C1Nc2ccccc2C1=O. As to the kind of experiment: purified protein. Conditions: Mn2+ dependent enzyme; one-site Michaelis-Menten fit.

As to “RsIHA (Ralstonia pseudosolanacearum GMI1000)”, the Km was 10 µM.

The Km is the concentration of substrate that gives half-maximal velocity.

These data come from PMC6117287, “A fundamental catalytic difference between zinc and manganese dependent enzymes revealed in a bacterial isatin hydrolase” (Scientific Reports, 2018).
